Amino acid sequences for entries named in this document (tags omitted). Chains listed by the source or under a name are the forms on record and can include a tag or linker. Residues count along the entry.
UniProt P63045, 1-96, chain 1 of 3: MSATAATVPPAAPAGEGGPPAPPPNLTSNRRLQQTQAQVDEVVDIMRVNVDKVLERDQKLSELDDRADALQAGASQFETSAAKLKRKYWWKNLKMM
ternary SNARE complex of GST-tagged soluble VAMP2 (1-96), syntaxin 1A (191-266) and His-tagged SNAP-25, UniProt P32851, 191-266, chain 2 of 3: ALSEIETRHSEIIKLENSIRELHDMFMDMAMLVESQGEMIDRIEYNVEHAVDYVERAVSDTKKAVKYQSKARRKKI
ternary SNARE complex of GST-tagged soluble VAMP2 (1-96), syntaxin 1A (191-266) and His-tagged SNAP-25, UniProt P60881, whole entry C85A/C88A/C90A/C92A, chain 3 of 3: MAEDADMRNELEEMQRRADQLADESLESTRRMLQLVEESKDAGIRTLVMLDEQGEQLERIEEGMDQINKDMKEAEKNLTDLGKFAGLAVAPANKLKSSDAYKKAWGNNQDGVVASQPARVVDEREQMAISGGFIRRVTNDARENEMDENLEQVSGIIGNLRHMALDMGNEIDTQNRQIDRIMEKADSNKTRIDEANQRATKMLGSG

According to paper PMC4366854, “Molecular origins of synaptotagmin 1 activities on vesicle docking and fusion pore opening” (Scientific Reports, 2015):

Biological target: ternary SNARE complex of GST-tagged soluble VAMP2 (1-96), syntaxin 1A (191-266) and His-tagged SNAP-25 (rat, UniProt P63045 1-96; P32851 191-266; P60881 1-206, C85A | C88A | C90A | C92A)
Test: pull-down; GST pull-down: ternary SNARE complex (GST-VAMP2 1-96 / syntaxin 1A 191-266 / His-SNAP-25) held on glutathione-agarose beads; wild-type Syt1 or mutants added in cleavage buffer (50 mM Tris-HCl pH 8.0, 150 mM NaCl, 0.8% OG) with 500 uM Ca2+, 4 °C, 1 h; SDS-PAGE, Coomassie blue; wild type also tested with BSA, 200 uM IP3 or without Ca2+
Conditions: both partners purified

B1: Syt1 EEE (Lys326, Lys327, Lys331 to Glu) (domain or fragment, UniProt P21707 50-421, looked up)
chain: LHKIPLPPWALIAIAIVAVLLVVTAAFAVAKKSLFKKKNKKKGKEKGGKNAINMKDVKDLGKTMKDQALKDDDAETGLTDGEEKEEPKEEEKLGKLQYSLDYDFQNNQLLVGIIQAAELPALDMGGTSDPYVKVFLLPDKKKKFETKVHRKTLNPVFNEQFTFKVPYSELGGKTLVMAVYDFDRFSKHDIIGEFKVPMNTVDFGHVTEEWRDLQSAEKEEQEKLGDICFSLRYVPTAGKLTVVILEAKNLKKMDVGGLSDPYVKIHLMQNGKRLKKEETTIEKNTLNPYYNESFSFEVPFEQIQKVQVVVTVLDYDKIGKNDAIGKVFVGYNSTGAELRHWSDMLANPRRPIAQWHTLQVEEEVDAMLAVKK
notes: synaptotagmin 1 (Syt1), amino acids 50-421; polybasic region mutant of m1; The methods print L326/327/331E; also called Syt1 EEE (L326/327/331E); source: E. coli BL21 (DE3), purified
  binding result: binds
